Compound potency records, mixed from different reports. Data source: NIAID ChemDB in PubChem.

Shared fields: whole-cell or culture tests; species: Aspergillus flavus

MIC50, MIC90 and the like: level of inhibition, or share of isolates inhibited. Blank or dashed fields: not listed here. a–b is a range or a potency band. Neighbouring rows are from separate reports.

SMILES | measure | strain | read by | result
C/C=C/c1ccc(O)c(OC)c1 | MIC50 | - | agar | 94 µg/mL
Nc1[nH]c(=O)ncc1F | MIC | - | - | 2–64 µg/mL
CNC(=S)N/N=C/c1ccc(-n2ccnc2)cc1 | MIC50 | - | broth dilution | >964 µM
COc1cc(C(=O)O)cc(OC)c1O | MIC100 | - | agar | >1000 µg/mL
C[C@H]1[C@H](O)[C@@H](C)/C=C/C=C/C=C/C=C/C=C/C=C/C=C/[C@H](O[C@@H]2O[C@H](C)[C@@H](O)[C@H](N)[C@@H]2O)C[C@@H]2O[C@](O)(C[C@@H](O)C[C@@H](O)CC[C@H](O)[C@@H](O)C[C@@H](O)CC(=O)O[C@H]1C)C[C@H](O)[C@H]2C(=O)O | MIC50 | - | - | 1–2 µg/mL
O=C(O)c1cc(O)c(O)c(O)c1 | MIC100 | - | agar | >1000 µg/mL
CCCCCOc1ccc(-c2cc(-c3ccc(C(=O)N[C@H]4C[C@@H](O)[C@@H](O)NC(=O)[C@@H]5[C@@H](O)[C@@H](C)CN5C(=O)[C@H]([C@H](O)CC(N)=O)NC(=O)[C@H]([C@H](O)[C@@H](O)c5ccc(O)c(OS(=O)(=O)O)c5)NC(=O)[C@@H]5C[C@@H](O)CN5C(=O)[C@H]([C@@H](C)O)NC4=O)cc3)no2)cc1 | MIC90 | - | - | 0.03 µg/mL
CC(C)=CCC/C(C)=C/CO | MFC | NRRL 501 | broth dilution | 288 µg/mL
CCCCCOc1ccc(-c2ccc(-c3ccc(C(=O)N[C@H]4C[C@@H](O)[C@@H](O)NC(=O)[C@@H]5[C@@H](O)[C@@H](C)CN5C(=O)[C@H]([C@H](C)O)NC(=O)[C@H]([C@H](O)[C@@H](O)c5ccc(O)cc5)NC(=O)[C@@H]5C[C@@H](O)CN5C(=O)[C@H]([C@H](C)O)NC4=O)cc3)cc2)cc1 | MIC | - | - | 0.015–8 µg/mL
C/C(=N\NC(=O)c1ccc([N+](=O)[O-])cc1)c1ccc(-n2ccnc2)cc1 | MIC50 | - | broth dilution | >715.6 µM
CCC(C)CC(C)CCCCCCCCC(=O)N[C@H]1C[C@@H](O)[C@H](NCCN)NC(=O)[C@@H]2[C@@H](O)CCN2C(=O)[C@H]([C@H](O)CCN)NC(=O)[C@H]([C@H](O)[C@@H](O)c2ccc(O)cc2)NC(=O)[C@@H]2C[C@@H](O)CN2C(=O)[C@H]([C@@H](C)O)NC1=O | MIC50 | - | - | 0.03–0.25 µg/mL
Oc1cc(O)cc(O)c1 | MIC100 | - | agar | >1000 µg/mL
NC(=S)N/N=C/c1cnc[nH]1 | MIC50 | - | broth dilution | >1480 µM
COc1cc(C(=O)O)ccc1O | MIC100 | - | agar | >1000 µg/mL
O=C(N/N=C/c1ccc(-n2ccnc2)cc1)c1ccc(Cl)cc1 | MIC50 | - | broth dilution | >769.8 µM